The results in this text go back to paper PMC4382993.

Amino acid sequences for entries named in this document (tags omitted).
UniProt P06709, whole entry: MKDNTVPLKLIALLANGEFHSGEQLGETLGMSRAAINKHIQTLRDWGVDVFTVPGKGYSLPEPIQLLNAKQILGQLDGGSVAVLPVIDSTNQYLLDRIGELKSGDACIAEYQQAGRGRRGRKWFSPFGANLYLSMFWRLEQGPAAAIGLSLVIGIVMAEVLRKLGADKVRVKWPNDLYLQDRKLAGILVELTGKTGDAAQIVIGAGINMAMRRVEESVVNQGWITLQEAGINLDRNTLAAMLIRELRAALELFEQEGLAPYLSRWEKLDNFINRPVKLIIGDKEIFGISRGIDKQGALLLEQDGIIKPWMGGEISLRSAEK

For some of these results: Protein sequences can lack the tags named with them. For some of these results: Construct, isoform or probe ends are uncertain for at least one entry.

The target in series [1] is BirA (UniProt P06709). Nature of the series: EMSA and competition. Conditions: 20 uM biotin, 1 mM ATP, 5 mM Mg2+, BirA EMSA: 1 mM Tris-HCl pH 7.5, 0.1 mM EDTA, 0.2 mM DTT, 5 mM MgCl2, 10 mM KCl, 1 mM ATP (DIG Gel Shift Kit), recombinant protein, residues 1-321, protein details: N-terminal 6xHis, label: DIG, probe letters rebuilt from the primers and the genome. (In general: A gel shift assay detects complexes by their altered migration in electrophoresis.)

Series [2] addresses T1, Fur (UniProt P0A9B1).
T1 sequence (looked up): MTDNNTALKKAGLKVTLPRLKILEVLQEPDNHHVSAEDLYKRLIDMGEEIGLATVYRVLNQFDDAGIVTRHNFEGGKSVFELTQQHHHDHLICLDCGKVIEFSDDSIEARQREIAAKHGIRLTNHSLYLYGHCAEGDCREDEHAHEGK
The series is described as follows: EMSA. Conditions: 100 uM Mn2+; BirA EMSA: 1 mM Tris-HCl pH 7.5, 0.1 mM EDTA, 0.2 mM DTT, 5 mM MgCl2, 10 mM KCl, 20 uM biotin, 1 mM ATP (DIG Gel Shift Kit); recombinant protein; residues 1-148; protein details: N-terminal 6xHis; probe letters rebuilt from the primers and the genome.

As for “GCCCACCAGGACGACATACCGTCAACCAGGCGTCTGCCGTCAGACAAAATTAGCTCGCAACCTTCGGCGCTCGCCACCGGATAAACCGGTAGCGGGGAGGTCATGGATGTGTATGGGTGCCAGATATGGCGTTGGTCAAAGGCAAGATCGTCCGTTGTCATAATCGACTTGTAAACCAAATTGAAAAGATTTAGGTTTACAAGTCTACACCGAATTAACAACAAAAAACACGTTTTGGAGAAGCCCCATGGCTCACCGCCCACGCTGGACATTGTCGCAAGTCACAGAATTATTTGAAAAACCGTTGCTGGATCTGCTGTTTGAAGCGCAGCAGGTGCATCGCCAGCATTTCGATCCTCGTCAGGTGCAGGTCAGCACCTTGCTGTCGATTAAGACCGGAGCTTGTCCGGAAGATTGCAAATACTGCCCGCAAAGC (double strand) [bioO]”, the binding result in series [1] is given as “binds”.

Consider “CTTTCTTTAGGGCGGTATTGTTATCAGTCATGCGGAATCTGGTCCTGTTACTAAGCGGTTCACTTCATTAGAAGAAGTGACAGAATTTGCTCTTGAGATAATGCGGTATCATTATAGAATTGCCACGCCTAAATGAAAACCACAAGTCCCTGGCAAATATTGTTAATAAAAACGTGGCACAGCTTACATTTACAACGGCAAGGCCACTTGAACACCGGGACATTGTACAGGTACAACGGCAAAAGTTACAAATTTGTAGCAATTATTTTGATTGGCATTATCTATTAATACGGCGTAGACATGAGTCTACGCCGCATCACATCAGGCATTGA (double strand) [fur promoter (O55)]”, for which the binding result in series [1] is reported as “binds”.

As to “TTCGTCATTCAGACGCTGCCATTCCGGGCCATGTTTCGACTGCCACCAGCTCTCACTTCCTACTTTTAACGCCGTCACACCATAACCCCATGTTTACTGTGCAATTTTTCATTGATTGCAGAAATATATTGATAATATTATTGATAACTATTTGCATTTGCAATAGCGTAATGGCGCGCCGTGGGAAGCGCGGACATTAATTAACCAACTGCACTGCGTGTCTTTCAGGATCAAAGGTTTTCGCGGTAGCGGGATGCGTCGTGTTGATGACGACCATGCCCGACAGTTGCAATTCGTGGCAAAAATGCAGGAATAAAACA (double strand) [fepA promoter]”, the binding result in series [2] is reported as “binds”.

On to “CTTTCTTTAGGGCGGTATTGTTATCAGTCATGCGGAATCTGGTCCTGTTACTAAGCGGTTCACTTCATTAGAAGAAGTGACAGAATTTGCTCTTGAGATAATGCGGTATCATTATAGAATTGCCACGCCTAAATGAAAACCACAAGTCCCTGGCAAATATTGTTAATAAAAACGTGGCACAGCTTACATTTACAACGGCAAGGCCACTTGAACACCGGGACATTGTACAGGTACAACGGCAAAAGTTACAAATTTGTAGCAATTATTTTGATTGGCATTATCTATTAATACGGCGTAGACATGAGTCTACGCCGCATCACATCAGGCATTGA (double strand) [fur promoter (O157)]”, for which the binding result in series [1] was “binds”.
